Anti-infective test results gathered from many reports (values: NIAID ChemDB through PubChem).

Common to all: growth or infection tests; agent: HIV-1; measure: EC50

Blank or dashed fields: not listed here. ECn: concentration that inhibits the pathogen or its effect by n%. Conditions beyond the fields shown may differ between rows.

smiles,mutations,cell line,method,strain or isolate,value
Nc1cc(OCCOCP(=O)(O)O)nc(N)n1,,CEM,syncytia,IIIB,3 µM
FC(F)(F)c1cccc(-n2c(Cc3ccccn3)n[nH]c2=S)c1,,MT-4,cytopathic effect / MTT,IIIB,>100 µM
COC(=O)[C@H](C)NC(=O)C[C@H](O)[C@@H](NC(=O)Oc1ccccc1)C(F)(F)F,,MT-4,RT activity,IIIB,>100 µg/mL
CC(NS(=O)(=O)c1ccc(Cl)cc1)c1nnc(SCc2ccc(F)cc2)o1,,MT-4,,IIIB,>58.75 µg/mL
CC(C)CS[C@@H]1C[C@H](n2cnc3c(N)ncnc32)[C@@H](O)[C@H]1O,,CEM,cytopathic effect / syncytia / trypan blue,IIIB,>50 µg/mL
CC(C)=CCOc1cc(NC(=S)c2ccoc2C)ccc1Cl,RT-Y181C,CEM,syncytia,IIIB,0.033 µM
C[C@H](Cn1cnc2c(N)ncnc21)OCP(=O)(O)O,,CEM,syncytia,IIIB,1.2 µM
C[C@H](NC(=O)C[C@H](O)[C@@H](NC(=O)Oc1ccccc1)C(F)(F)F)C(=O)O,,MT-4,RT activity,IIIB,>100 µg/mL
NC1=NCN([C@H]2C[C@H](O)[C@@H](CO)O2)C(=O)N1,,MT-2,,LAI,3 µM
Nc1ncnc2c1ncn2COCCOP(=O)(O)O,,SupT1 + Sup-T1,syncytia,,<300 µM
Cc1ccc(-n2c(Cc3ccccn3)n[nH]c2=S)cc1Cl,,MT-4,cytopathic effect / MTT,IIIB,>100 µM
Cc1ccc(C)n1-c1ccc(C(=O)O)c(O)c1,,PBMC + MT-2,p24,92US657 R5 CLADE B,44.13 µM
COC(=O)C[C@H](O)[C@@H](NC(=O)Oc1ccccc1)C(F)(F)F,,MT-4,RT activity,IIIB,>100 µg/mL
Fc1ccc(Nc2nnc(Cc3ccccn3)s2)cc1Cl,,MT-4,cytopathic effect / MTT,IIIB,>100 µM
CSCCC(NS(=O)(=O)c1ccc(C)cc1)c1nnc(SCc2ccc(F)cc2)o1,,MT-4,,IIIB,>11.5 µg/mL
C=C(C)CN1CCn2cnnc2-c2sc3ccc([N+](=O)[O-])cc3c21,,OM-10.1,p24,,0.4 µM
COc1cc(OC[C@H]2CC[C@@H](CO)O2)nc(N)n1,,CEM,syncytia,IIIB,>50 µM
COc1cc(Cc2cnc(/N=C3\C(=O)N(CN4CCN(c5ccccn5)CC4)c4ccc(C)cc43)nc2N)cc(OC)c1OC,,MT-4,cytopathic effect,,>119.6 µM
Nc1ncnc2c1ncn2COCCOP(=O)([O-])O[C@@H]1[C@H](O)[C@@H](COP(=O)([O-])O[C@@H]2[C@H](O)[C@@H](COP(=O)([O-])O[C@@H]3[C@H](O)[C@@H](CO)O[C@H]3n3cnc4c(N)ncnc43)O[C@H]2n2cnc3c(N)ncnc32)O[C@H]1n1cnc2c(N)ncnc21,,SupT1 + Sup-T1,syncytia,,<300 µM
O=C(Cc1ccccn1)NNC(=S)Nc1ccc(F)c(Cl)c1,,MT-4,cytopathic effect / MTT,IIIB,>100 µM
Cc1ccc(-c2c(C)c3c(c(C)c2[C@H](OC(C)(C)C)C(=O)O)N(S(C)(=O)=O)Cc2cccc(F)c2-3)c(O)c1,T174I,MT-4,MTT,,>50 µM
COc1cccc2ccc(/C=C/C(=O)Nc3ccc(Cl)cc3)nc12,,TZM-bl,luminescence,UG070,>130 µM
CC(=O)N1Cc2ccccc2-c2c(C)c(-c3ccc(C)cc3)c([C@H](OC(C)(C)C)C(=O)O)c(C)c21,,MT-4,MTT,,0.011 µM
COc1cccc2ccc(-c3nnc(-c4ccccc4)o3)nc12,,TZM-bl,luminescence,VB59,>300 µM
COc1cc(Cc2cnc(/N=C3\C(=O)N(CN4CCN(c5ccc(Cl)cc5)CC4)c4ccc(C)cc43)nc2N)cc(OC)c1OC,,MT-4,cytopathic effect,,17.2 µM
CSCCC(NS(=O)(=O)c1ccc(C)cc1)c1nnc(SCc2ccc(Br)cc2)o1,,MT-4,,IIIB,>11.75 µg/mL
Nc1cc(OC[C@H](CO)OCP(=O)(O)O)nc(N)n1,,CEM,syncytia,IIIB,≥14 µM
Cc1ccc(S(=O)(=O)N(Cc2ccc(Br)cc2)C(C)c2nnc(SCc3ccc(Br)cc3)o2)cc1,,MT-4,,IIIB,>125 µg/mL
COc1ccc(-c2nnc(-c3ccc4cccc(OC)c4n3)o2)cc1,,TZM-bl,luminescence,VB59,45.09 µM
CCOc1ccc2sc3c(c2c1)N(CCO)CCNC3=O,,OM-10.1,p24,,0.5 µM
Nc1ccn(CCN2C(=O)CSC2COCc2ccccc2)c(=O)n1,,MT-4,cytopathic effect,,≥100 µM
COc1cc(Cc2cnc(/N=C3\C(=O)N(CN4CCN(c5ccccc5)CC4)c4ccc(C)cc43)nc2N)cc(OC)c1OC,,CEM,cytopathic effect,,>121 µM
Nc1nccc(OC[C@@H]2O[C@H](CO)[C@@H](O)[C@H]2O)n1,,CEM,syncytia,IIIB,>100 µM
CSCCC(c1nnc(SCc2ccc(F)cc2)o1)N(Cc1ccc(F)cc1)S(=O)(=O)c1ccc(C)cc1,,MT-4,,IIIB,>125 µg/mL
Nc1ccnc(OC[C@H]2CC[C@@H](CO)O2)n1,,CEM,syncytia,IIIB,>250 µM
CC(NS(=O)(=O)c1ccc(Cl)cc1)c1nnc(SCc2ccc(Br)cc2)o1,,MT-4,,IIIB,>12.33 µg/mL
COc1cccc(CN2CCNC(=O)c3sc4ccc([N+](=O)[O-])cc4c32)c1,,OM-10.1,p24,,0.03 µM
Nc1ccn([C@H]2CC[C@@H](CO)O2)c(=O)n1,,MT-4,cytopathic effect / MTT,IIIB,0.088 µM
Cc1occc1C(=S)Nc1ccc(Cl)c(/C=N/OC(C)(C)C)c1,RT-V106A,CEM,syncytia,IIIB,0.37 µM
C=C(C)CN1CCn2ccnc2-c2sc3ccc([N+](=O)[O-])cc3c21,,OM-10.1,p24,,3.8 µM
Nc1nc(N)c(Br)c(OCCOCP(=O)(O)O)n1,,CEM,syncytia,IIIB,7.3 µM
COc1cccc(CN2CCNC(=O)c3sc4ccc(OC)cc4c32)c1,,OM-10.1,p24,,<0.08 µM
COc1cccc(N2CCN(CN3C(=O)/C(=N\c4ncc(Cc5cc(OC)c(OC)c(OC)c5)c(N)n4)c4cc(C)ccc43)CC2)c1,,MT-4,cytopathic effect,,>32.1 µM
Cc1c(N)nc(N)nc1OCCOCP(=O)(O)O,,CEM,syncytia,IIIB,2.7 µM
CSCCC(NS(=O)(=O)c1ccc(Cl)cc1)c1nnc(SCc2ccccc2)o1,,MT-4,,IIIB,>12.67 µg/mL
COc1ccc(-c2nnc(-c3ccc4cccc(OC)c4n3)o2)cc1OC,,TZM-bl,luminescence,VB59,>135 µM
O=C(Cc1ccccn1)NNC(=S)Nc1cccc(Br)c1,,MT-4,cytopathic effect / MTT,IIIB,>100 µM
COc1cc(OC[C@H]2CC[C@@H](CO)O2)ncn1,,CEM,syncytia,IIIB,>50 µM
Nc1nc(N)c(CC(=O)O)c(OCCOCP(=O)(O)O)n1,,CEM,syncytia,IIIB,≥300 µM
Cc1ccc(S(=O)(=O)NC(C)c2nnc(SCc3ccccc3)o2)cc1,,MT-4,,IIIB,>59.58 µg/mL
Cc1ccc(-c2c(C)c3c(c(C)c2[C@H](OC(C)(C)C)C(=O)O)N(S(C)(=O)=O)Cc2cccc(F)c2-3)cc1,,MT-4,MTT,,0.0055 µM
COc1ccc2sc3c(c2c1)SCCn1ccnc1-3,,OM-10.1,p24,,1 µM
Nc1ncnc2c1ncn2COCCOP(=O)([O-])O[C@@H]1[C@H](O)[C@@H](COP(=O)([O-])O[C@@H]2[C@H](O)[C@@H](CO)O[C@H]2n2cnc3c(N)ncnc32)O[C@H]1n1cnc2c(N)ncnc21,,SupT1 + Sup-T1,RT activity,,<300 µM
COC(=O)C[C@H](O)[C@@H](N)C(F)(F)F,,CEM + CEM-SS,RT activity,LAI,>100 µg/mL

Repeating the first 7 entries:

| smiles | mutations | cell line | method | strain or isolate | value |
|---|---|---|---|---|---|
| Nc1cc(OCCOCP(=O)(O)O)nc(N)n1 |  | CEM | syncytia | IIIB | 3 µM |
| FC(F)(F)c1cccc(-n2c(Cc3ccccn3)n[nH]c2=S)c1 |  | MT-4 | cytopathic effect / MTT | IIIB | >100 µM |
| COC(=O)[C@H](C)NC(=O)C[C@H](O)[C@@H](NC(=O)Oc1ccccc1)C(F)(F)F |  | MT-4 | RT activity | IIIB | >100 µg/mL |
| CC(NS(=O)(=O)c1ccc(Cl)cc1)c1nnc(SCc2ccc(F)cc2)o1 |  | MT-4 |  | IIIB | >58.75 µg/mL |
| CC(C)CS[C@@H]1C[C@H](n2cnc3c(N)ncnc32)[C@@H](O)[C@H]1O |  | CEM | cytopathic effect / syncytia / trypan blue | IIIB | >50 µg/mL |
| CC(C)=CCOc1cc(NC(=S)c2ccoc2C)ccc1Cl | RT-Y181C | CEM | syncytia | IIIB | 0.033 µM |
| C[C@H](Cn1cnc2c(N)ncnc21)OCP(=O)(O)O |  | CEM | syncytia | IIIB | 1.2 µM |